Results of unrelated studies side by side (data: NIAID ChemDB).

Shared fields: growth or infection tests; organism: Toxoplasma gondii; measure: EC50

Blank or dashed fields: not listed here. Neighbouring rows are from separate reports. ECn: concentration that inhibits the pathogen or its effect by n%.

| compound | strain | value |
|---|---|---|
| CCn1cc(C(=O)O)c(=O)c2cnc(N3CCCC3)nc21 | - | 26 µg/mL |
| CCCC1=C(OCCCCCCO[Si](C)(C)C(C)(C)C)C(C)SC1=O | RH | 31.9 µM |
| COc1c(N2CCNC(C)C2)c(F)cc2c(=O)c(C(=O)O)cn(C3CC3)c12 | - | 4.1 µg/mL |
| O=C1C=C(Br)C(=O)c2c(O)cccc21 | - | 1.28 µg/mL |
| CCCCCCCCCCCCCCCCC1(C)SC(=O)C(Cc2ccccc2)=C1O | RH | 2.74 µM |
| Nc1ccc(S(=O)(=O)Nc2ncc(OS(=O)(=O)O)cn2)cc1 | - | >250 µg/mL |
| Cc1c(F)c(N2CCNC(C)C2)cc2c1c(=O)c(C(=O)O)cn2C1CC1 | - | 2.4 µg/mL |
| O=C1c2cc(=O)[nH]cc2C(=O)c2c(O)cccc21 | - | 1.86 µg/mL |
| CN1CCC(c2cc(-c3ccncc3)c(-c3ccc(F)cc3)[nH]2)CC1 | TG-PKG FLAG | 0.3 µM |
| COC(=O)C1C=CNc2c(O)c3c(c(O)c21)C(=O)C=CC3=O | - | 2.18 µg/mL |
| CNC1[C@H]2CN(c3nc4c(cc3F)c(=O)c(C(=O)O)cn4-c3ccc(F)cc3F)C[C@@H]12 | - | 0.4 µg/mL |
| Cc1cc2c(o1)C(=O)c1cc(=O)[nH]cc1C2=O | - | 1.2 µg/mL |
| CCCCCCCCCCC1(C)SC(=O)C(C)=C1O | RH | 28.8 µM |
| O=C1C(=O)c2ccccc2C(O)=C1C1CCC(c2ccc(Cl)cc2)CC1 | RH | 0.02 µM |
| Cc1[nH]c(=O)cc2c1C(=O)c1cccc(O)c1C2=O | - | 2 µg/mL |

A second listing of 2 rows from above:

| compound | strain | value |
|---|---|---|
| COC(=O)C1C=CNc2c(O)c3c(c(O)c21)C(=O)C=CC3=O | - | 2.18 µg/mL |
| COc1c(N2CCNC(C)C2)c(F)cc2c(=O)c(C(=O)O)cn(C3CC3)c12 | - | 4.1 µg/mL |